Results on one molecule are retold here after article PMC5701626.

The match of structure and compound is tentative.

In one assay the test system is HLA A2. In words: pMHC stability by SPR (868 TCR binding over time at 37°C). Particulars: SPR chip at 37°C, 868 TCR injected at 100 µM over 720 min, 8 time points, drop in RUs.
A further assay concerns HLA A2 on T2 cells. The experiment in a line: T2 peptide–HLA-A2 stability assay (HLA-A2 surface staining). Particulars: T2 cells incubated with peptide 22 h, washed, cultured in excess AIM-V at 37°C; result in words.

For the molecule `CC[C@H](C)[C@H](NC(=O)[C@@H](NC(=O)[C@H](CC(N)=O)NC(=O)[C@H](Cc1ccccc1)NC(=O)[C@H](CC(C)C)NC(=O)[C@@H](N)CO)[C@@H](C)O)C(=O)N[C@@H](C)C(=O)N[C@H](C(=O)N[C@@H](CC(C)C)C(=O)O)C(C)C`, the t1/2 in the assay on HLA A2 came to 1.98 h. Besides, the “HLA A2 remaining at T2 cell surface after peptide removal” value in the assay on HLA A2 on T2 cells is reported as “had decayed in half this time”.
